Reference: a compilation of properties of binary mixtures (doi:10.1021/acs.jpcc.7b06523)

Assay: xn = mol fraction of the nth substance listed
Details: 101 kPa

CCC[N+]1(C)CCCC1.O=S(=O)(F)[N-]S(=O)(=O)F + O=S(=O)(F)[N-]S(=O)(=O)F.[K+]
Details	electrical conductivity [S/m]	mass density [kg/m3]	viscosity [mPa·s]
328 K, x2 = 0.1	–	–	22.6
328 K, x2 = 0.15	1.33	1373	25.4
328 K, x2 = 0.2	1.18	1394.8	28.9
328 K, x2 = 0.25	1.04	1418.2	33.6
333 K, x2 = 0.05	1.76	1329.6	17.5
333 K, x2 = 0.1	1.64	1348.5	19.8
333 K, x2 = 0.15	1.5	1368.9	22.2
333 K, x2 = 0.25	1.18	1414	29.3
338 K, x2 = 0	2.12	1307.6	14.2
338 K, x2 = 0.05	1.94	1325.6	15.6
338 K, x2 = 0.1	1.82	1344.5	17.5
338 K, x2 = 0.15	1.67	1364.9	19.6
338 K, x2 = 0.2	1.5	1386.6	22
338 K, x2 = 0.25	1.33	1409.8	25.4
343 K, x2 = 0	2.32	1303.8	12.8
343 K, x2 = 0.05	2.13	1321.7	14
343 K, x2 = 0.1	2.01	1340.6	15.6
343 K, x2 = 0.15	1.85	1360.9	17.3
343 K, x2 = 0.2	1.67	1382.5	19.4
348 K, x2 = 0	2.53	1300	11.5
348 K, x2 = 0.05	2.34	1317.8	12.6
348 K, x2 = 0.1	2.21	1336.6	14
348 K, x2 = 0.15	2.04	1356.9	15.5
348 K, x2 = 0.2	1.85	1378.4	17.2
348 K, x2 = 0.25	1.66	1401.6	19.8
353 K, x2 = 0	2.75	1296.2	10.5
353 K, x2 = 0.05	2.55	1313.9	11.4
353 K, x2 = 0.15	2.24	1352.9	13.9
353 K, x2 = 0.2	2.04	1374.4	15.4
358 K, x2 = 0	2.98	1292.4	9.6
